Molecular target: Human PAI-1 (Plasminogen activator inhibitor-1) (human) (UniProt P05121)
Assay: SPR (Biacore X100), human PAI-1 amine-coupled on chip, lubricin injected at 0.576-420 µg/mL, 25 °C

Kd: 2710 nM
Substance: recombinant human lubricin (full length human PRG4) (from UniProt Q92954 25-1404) (other; other documents disagree on this pair)

Source: patent US20210260167A1
